Only a part of the results on these compounds is given; other tests are left out.
Target: plasmepsin II (Plasmodium falciparum, UniProt P46925)
Experiment: fluorescence resonance energy transfer (FRET) assay for plasmepsin II
Type: biochemical
Settings: read-out: IC50 (nM) on plasmepsin II, Table 1, selected compounds, pH 5, 37° C., 40 min, substrate 1 μM

The chains behind the UniProt entries cited, without tags or fusion partners. Residues count along the entry.
UniProt P46925, 125-453 limits assumed: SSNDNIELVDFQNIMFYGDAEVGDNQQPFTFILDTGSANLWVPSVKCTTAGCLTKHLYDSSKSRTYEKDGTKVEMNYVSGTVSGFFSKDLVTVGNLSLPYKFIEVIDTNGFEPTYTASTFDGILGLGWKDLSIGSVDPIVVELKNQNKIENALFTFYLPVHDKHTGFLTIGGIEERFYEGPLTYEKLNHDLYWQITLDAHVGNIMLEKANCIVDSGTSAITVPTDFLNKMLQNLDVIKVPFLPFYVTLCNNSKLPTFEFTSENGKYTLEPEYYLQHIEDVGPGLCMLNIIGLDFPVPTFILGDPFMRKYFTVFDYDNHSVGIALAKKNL

For `CCCCCc1ccc(C(=O)N(c2ccc(OCc3ccccc3)cc2)C2CCN(Cc3ccccc3)CC2)cc1`, the IC50 was 1530 nM.

From patent US20040102431A1, “Substituted amino-aza-cycloalkanes useful against malaria” (priority 2000, published 2004)
